Test results: US20180264072A1, “Polypeptides comprising vinculin binding sites for the treatment of proliferation and/or adhesion related diseases” (published 2018)

Molecular target: talin in HeLa cells (UniProt Q9Y490)
Assay: cell-based or functional assay

Row | Substance | percentage of foci forming talin coat structures
1 | IpaA ΔVBS1-2 (deleted for residues IpaA 550-633) | 19%
2 | IpaA ΔVBS3 (deleted for residues IpaA 489-511) | 25%
